This is an account of results in PMC9104152, “Phosphoproteomics Unravel HBV Triggered Rewiring of Host Phosphosignaling Events” (International Journal of Molecular Sciences, 2022).

For this data set, the system named is HepG2-NTCP cells. As to the kind of experiment: TMT-based phosphoproteome profiling of HBV-infected vs mock HepG2-NTCP (HBV/mock ratio). On the set-up: species or system human. The conditions noted are these: sheet Up-regulated, HBV-infected vs mock HepG2-NTCP.
[1] abbreviates: phosphosites of host proteins deregulated at 7dpi.
Setting [2] is: phosphosite abundance ratio of host protein, 7dpi.

B1: Q9UPN9 1xPhospho [T/S] (protein, UniProt Q9UPN9 1-1127, looked up)
E3 ubiquitin-protein ligase …: MAENKGGGEAESGGGGSGSAPVTAGAAGPAAQEAEPPLTAVLVEEEEEEGGRAGAEGGAAGPDDGGVAAASSGSAQAASSPAASVGTGVAGGAVSTPAPAPASAPAPGPSAGPPPGPPASLLDTCAVCQQSLQSRREAEPKLLPCLHSFCLRCLPEPERQLSVPIPGGSNGDIQQVGVIRCPVCRQECRQIDLVDNYFVKDTSEAPSSSDEKSEQVCTSCEDNASAVGFCVECGEWLCKTCIEAHQRVKFTKDHLIRKKEDVSESVGASGQRPVFCPVHKQEQLKLFCETCDRLTCRDCQLLEHKEHRYQFLEEAFQNQKGAIENLLAKLLEKKNYVHFAATQVQNRIKEVNETNKRVEQEIKVAIFTLINEINKKGKSLLQQLENVTKERQMKLLQQQNDITGLSRQVKHVMNFTNWAIASGSSTALLYSKRLITFQLRHILKARCDPVPAANGAIRFHCDPTFWAKNVVNLGNLVIESKPAPGYTPNVVVGQVPPGTNHISKTPGQINLAQLRLQHMQQQVYAQKHQQLQQMRMQQPPAPVPTTTTTTQQHPRQAAPQMLQQQPPRLISVQTMQRGNMNCGAFQAHQMRLAQNAARIPGIPRHSGPQYSMMQPHLQRQHSNPGHAGPFPVVSVHNTTINPTSPTTATMANANRGPTSPSVTAIELIPSVTNPENLPSLPDIPPIQLEDAGSSSLDNLLSRYISGSHLPPQPTSTMNPSPGPSALSPGSSGLSNSHTPVRPPSTSSTGSRGSCGSSGRTAEKTSLSFKSDQVKVKQEPGTEDEICSFSGGVKQEKTEDGRRSACMLSSPESSLTPPLSTNLHLESELDALASLENHVKIEPADMNESCKQSGLSSLVNGKSPIRSLMHRSARIGGDGNNKDDDPNEDWCAVCQNGGDLLCCEKCPKVFHLTCHVPTLLSFPSGDWICTFCRDIGKPEVEYDCDNLQHSKKGKTAQGLSPVDQRKCERLLLYLYCHELSIEFQEPVPASIPNYYKIIKKPMDLSTVKKKLQKKHSQHYQIPDDFVADVRLIFKNCERFNEMMKVVQVYADTQEINLKADSEVAQAGKAVALYFEDKLTEIYSDRTFAPLPEFEQEEDDGEVTEDSDEDFIQPRRKRLKSDERPVHIK
modifications: phosphorylated
As to B1, the HBV/mock under setting [1] stood at 2.1075.

B2: O94874 1xPhospho [S458(100)] (protein, UniProt O94874 2-794, looked up)
E3 UFM1-protein ligase 1: ADAWEEIRRLAADFQRAQFAEATQRLSERNCIEIVNKLIAQKQLEVVHTLDGKEYITPAQISKEMRDELHVRGGRVNIVDLQQVINVDLIHIENRIGDIIKSEKHVQLVLGQLIDENYLDRLAEEVNDKLQESGQVTISELCKTYDLPGNFLTQALTQRLGRIISGHIDLDNRGVIFTEAFVARHKARIRGLFSAITRPTAVNSLISKYGFQEQLLYSVLEELVNSGRLRGTVVGGRQDKAVFVPDIYSRTQSTWVDSFFRQNGYLEFDALSRLGIPDAVSYIKKRYKTTQLLFLKAACVGQGLVDQVEASVEEAISSGTWVDIAPLLPTSLSVEDAAILLQQVMRAFSKQASTVVFSDTVVVSEKFINDCTELFRELMHQKAEKEMKNNPVHLITEEDLKQISTLESVSTSKKDKKDERRRKATEGSGSMRGGGGGNAREYKIKKVKKKGRKDDDSDDESQSSHTGKKKPEISFMFQDEIEDFLRKHIQDAPEEFISELAEYLIKPLNKTYLEVVRSVFMSSTTSASGTGRKRTIKDLQEEVSNLYNNIRLFEKGMKFFADDTQAALTKHLLKSVCTDITNLIFNFLASDLMMAVDDPAAITSEIRKKILSKLSEETKVALTKLHNSLNEKSIEDFISCLDSAAEACDIMVKRGDKKRERQILFQHRQALAEQLKVTEDPALILHLTSVLLFQFSTHSMLHAPGRCVPQIIAFLNSKIPEDQHALLVKYQGLVVKQLVSQSKKTGQGDYPLNNELDKEQEDVASTTRKELQELSSSIKDLVLKSRKSSVTEE
modifications: phosphorylated S458
In the case of B2, under setting [1], the HBV/mock was determined as 1.4667.

B3: P29374 1xPhospho [S] (protein, UniProt P29374 1-1257, looked up)
AT-rich interactive …: MKAADEPAYLTVGTDVSAKYRGAFCEAKIKTVKRLVKVKVLLKQDNTTQLVQDDQVKGPLRVGAIVETRTSDGSFQEAIISKLTDASWYTVVFDDGDERTLRRTSLCLKGERHFAESETLDQLPLTNPEHFGTPVIAKKTNRGRRSSLPVTEDEKEEESSEEEDEDKRRLNDELLGKVVSVVSATERTEWYPALVISPSCNDDITVKKDQCLVRSFIDSKFYSIARKDIKEVDILNLPESELSTKPGLQKASIFLKTRVVPDNWKMDISEILESSSSDDEDGPAEENDEEKEKEAKKTEEEVPEEELDPEERDNFLQQLYKFMEDRGTPINKPPVLGYKDLNLFKLFRLVYHQGGCDNIDSGAVWKQIYMDLGIPILNSAASYNVKTAYRKYLYGFEEYCRSANIQFRTVHHHEPKVKEEKKDLEESMEEALKLDQEMPLTEVKSEPEENIDSNSESEREEIELKSPRGRRRIARDVNSIKKEIEEEKTEDKLKDNDTENKDVDDDYETAEKKENELLLGRKNTPKQKEKKIKKQEDSDKDSDEEEEKSQEREETESKCDSEGEEDEEDMEPCLTGTKVKVKYGRGKTQKIYEASIKSTEIDDGEVLYLVHYYGWNVRYDEWVKADRIIWPLDKGGPKKKQKKKAKNKEDSEKDEKRDEERQKSKRGRPPLKSTLSSNMPYGLSKTANSEGKSDSCSSDSETEDALEKNLINEELSLKDELEKNENLNDDKLDEENPKISAHILKENDRTQMQPLETLKLEVGENEQIVQIFGNKMEKTEEVKKEAEKSPKGKGRRSKTKDLSLEIIKISSFGQNEAGSEPHIEAHSLELSSLDNKNFSSATEDEIDQCVKEKKLKRKILGQSSPEKKIRIENGMEMTNTVSQERTSDCIGSEGMKNLNFEQHFERENEGMPSLIAESNQCIQQLTSERFDSPAEETVNIPLKEDEDAMPLIGPETLVCHEVDLDDLDEKDKTSIEDVAVESSESNSLVSIPPALPPVVQHNFSVASPLTLSQDESRSVKSESDITIEVDSIAEESQEGLCERESANGFETNVASGTCSIIVQERESREKGQKRPSDGNSGLMAKKQKRTPKRTSAAAKNEKNGTGQSSDSEDLPVLDNSSKCTPVKHLNVSKPQKLARSPARISPHIKDGEKDKHREKHPNSSPRTYKWSFQLNELDNMNSTERISFLQEKLQEIRKYYMSLKSEVATIDRRRKRLKKKDREVSHAGASMSSASSDTGMSPSSSSPPQNVLAVECR
modifications: monophosphorylated
Turning to B3, the HBV/mock under setting [2] came out at 1.396.

B4: Q13263 1xPhospho [T541(100)] (protein, UniProt Q13263 2-835, looked up)
Transcription intermediary …: AASAAAASAAAASAASGSPGPGEGSAGGEKRSTAPSAAASASASAAASSPAGGGAEALELLEHCGVCRERLRPEREPRLLPCLHSACSACLGPAAPAAANSSGDGGAAGDGTVVDCPVCKQQCFSKDIVENYFMRDSGSKAATDAQDANQCCTSCEDNAPATSYCVECSEPLCETCVEAHQRVKYTKDHTVRSTGPAKSRDGERTVYCNVHKHEPLVLFCESCDTLTCRDCQLNAHKDHQYQFLEDAVRNQRKLLASLVKRLGDKHATLQKSTKEVRSSIRQVSDVQKRVQVDVKMAILQIMKELNKRGRVLVNDAQKVTEGQQERLERQHWTMTKIQKHQEHILRFASWALESDNNTALLLSKKLIYFQLHRALKMIVDPVEPHGEMKFQWDLNAWTKSAEAFGKIVAERPGTNSTGPAPMAPPRAPGPLSKQGSGSSQPMEVQEGYGFGSGDDPYSSAEPHVSGVKRSRSGEGEVSGLMRKVPRVSLERLDLDLTADSQPPVFKVFPGSTTEDYNLIVIERGAAAAATGQPGTAPAGTPGAPPLAGMAIVKEEETEAAIGAPPTATEGPETKPVLMALAEGPGAEGPRLASPSGSTSSGLEVVAPEGTSAPGGGPGTLDDSATICRVCQKPGDLVMCNQCEFCFHLDCHLPALQDVPGEEWSCSLCHVLPDLKEEDGSLSLDGADSTGVVAKLSPANQRKCERVLLALFCHEPCRPLHQLATDSTFSLDQPGGTLDLTLIRARLQEKLSPPYSSPQEFAQDVGRMFKQFNKLTEDKADVQSIIGLQRFFETRMNEAFGDTKFSAVLVEPPPMSLPGAGLSSQELSGGPGDGP
modifications: phosphorylated T541
With B4, under setting [1], the HBV/mock is reported as 1.348.

B5: Q8NHH9 1xPhospho [T/S/Y] (protein, UniProt Q8NHH9 1-583, looked up)
Atlastin-2: MAEGDEAARGQQPHQGLWRRRRTSDPSAAVNHVSSTTSLGENYEDDDLVNSDEVMKKPCPVQIVLAHEDDHNFELDEEALEQILLQEHIRDLNIVVVSVAGAFRKGKSFLLDFMLRYMYNKDSQSWIGGNNEPLTGFTWRGGCERETTGIQVWNEVFVIDRPNGTKVAVLLMDTQGAFDSQSTIKDCATVFALSTMTSSVQVYNLSQNIQEDDLQHLQLFTEYGRLAMEEIYQKPFQTLMFLIRDWSYPYEHSYGLEGGKQFLEKRLQVKQNQHEELQNVRKHIHNCFSNLGCFLLPHPGLKVATNPSFDGRLKDIDEDFKRELRNLVPLLLAPENLVEKEISGSKVTCRDLVEYFKAYIKIYQGEELPHPKSMLQATAEANNLAAVAGARDTYCKSMEQVCGGDKPYIAPSDLERKHLDLKEVAIKQFRSVKKMGGDEFCRRYQDQLEAEIEETYANFIKHNDGKNIFYAARTPATLFAVMFAMYIISGLTGFIGLNSIAVLCNLVMGLALIFLCTWAYVKYSGEFREIGTVIDQIAETLWEQVLKPLGDNLMEENIRQSVTNSIKAGLTDQVSHHARLKTD
modifications: phosphorylated
Regarding B5, under setting [2], the HBV/mock is recorded as 1.431.
